Compound potency records, mixed from different reports. Data source: NIAID ChemDB in PubChem.

All rows: cytotoxicity tests; cells: MT-4; measure: CC50

Neighbouring rows are from separate reports. CCn is the concentration with n% toxicity to the cells.

CC(C)CN(C[C@@H](O)[C@H](Cc1ccccc1)NC(=O)OC1COC2OCCC12)S(=O)(=O)c1ccc2nc[nH]c2c1 ; value: >100 µM
CN(C)CC1c2nc(C(=O)NCc3ccc(F)cc3)c(O)c(=O)n2CCN1C ; read by: microscopy ; value: >10 µM
N#Cc1cc(Cl)cc(Oc2cc(OCc3[nH]nc4nc(N)ccc34)cc(F)c2Cl)c1 ; read by: microscopy ; value: >20 µM
CC1=C(C)CC(COCP(=O)(O)O)(n2cnc3c(N)ncnc32)C1 ; read by: XTT ; value: >100 µM
CCOC(=O)c1[nH]c2ccc(Cl)cc2c1SCC1CCC1 ; read by: microscopy ; value: >10 µM
CN1CCn2c(nc(C(=O)NCc3ccc(F)cc3)c(O)c2=O)C1 ; read by: microscopy ; value: >1 µM
Cc1ccc(-c2cc(-c3ccccc3)c(C#N)c(=O)n2[C@@H]2O[C@H](CO)[C@H](O)[C@H](O)[C@H]2O)cc1 ; read by: XTT ; value: >22.3 µM
CC(C)CN(C[C@@H](O)[C@H](Cc1ccccc1)NC(=O)OCc1cccnc1)S(=O)(=O)c1ccc2nc(N)[nH]c2c1 ; value: >100 µM
CS(=O)(=O)c1ccc(NC(=O)COc2cc(Cl)cc(Oc3cc(Cl)cc(C#N)c3)c2)c(Cl)c1 ; read by: microscopy ; value: >20 µM
Cc1cccc(C)c1OCC(=O)N[C@@H](Cc1ccccc1)[C@H](O)CN(CC(C)C)S(=O)(=O)c1ccc2nc(N)[nH]c2c1 ; value: 64.6 µM
C[C@H]1CC[C@@]2(CC(O)CO2)[C@H]2CN1C(=O)c1c(O)c(=O)c(C(=O)NCc3c(F)cc(F)cc3F)cn12 ; read by: luminescence ; value: 50 µM
C#C[C@]1(CO)O[C@@H](c2cnc3c(N)ncnn23)C[C@@H]1O ; read by: ATP / luminescence ; value: >8.4 µM
O=C(NCc1ccc(F)cc1)c1nc2n(c(=O)c1O)CCOCC2 ; read by: microscopy ; value: >1 µM
NC(=O)c1[nH]c2ccc(Cl)cc2c1S(=O)(=O)CC1CC1 ; read by: microscopy ; value: >10 µM
C#C[C@]1(CO)O[C@@H](n2ccc3c(N)nc(Cl)nc32)C[C@@H]1O ; read by: ATP / luminescence ; value: >8.4 µM
Cc1cc(C)cc(Cc2c(I)c(=O)[nH]c(=O)n2COCc2ccccc2)c1 ; read by: XTT ; value: 98.3 µM
CN(C)CC1c2nc(C(=O)NCc3ccc(F)cc3)c(O)c(=O)n2CCN1Cc1cocn1 ; read by: microscopy ; value: >10 µM
C#C[C@]1(CO)O[C@@H](c2ccc3c(N)ncnn23)C[C@@H]1O ; read by: ATP / luminescence ; value: >8.4 µM
Cc1ccc(-c2cc(-c3ccco3)c(C#N)c(=O)n2[C@@H]2O[C@H](CO)[C@@H](O)[C@H](O)[C@H]2O)cc1 ; read by: XTT ; value: >82.1 µM
N#C[C@]1(CO)O[C@@H](n2ccc3c(N)ncnc32)C[C@@H]1O ; read by: ATP / luminescence ; value: >8.4 µM
O=C(NCc1ccc(F)cc1)c1nc2n(c(=O)c1O)CCNC2COCc1ccccc1 ; read by: microscopy ; value: >1 µM
CCOC(=O)c1[nH]c2ccc(Cl)cc2c1S(=O)(=O)C1CC1 ; read by: microscopy ; value: >10 µM
CCCc1nc2n(n1)C(c1ccc([N+](=O)[O-])cc1)CC(=O)N2 ; read by: visual reading ; value: >100 µg/mL
CC(C)CN(C[C@@H](O)[C@H](Cc1ccccc1)NC(=O)OC1COC2OCCC12)S(=O)(=O)c1ccc2nc(NC(=O)NCCN(C)C)[nH]c2c1 ; value: >100 µM
C[C@H]1CC[C@@]2(CNC(=O)C2)[C@H]2CN1C(=O)c1c(O)c(=O)c(C(=O)NCc3c(F)cc(F)cc3F)cn12 ; read by: luminescence ; value: 50 µM
CC(=O)Nc1nc2ccc(S(=O)(=O)N(CC(C)C)C[C@@H](O)[C@H](Cc3ccccc3)NC(=O)OC3COC4OCCC34)cc2[nH]1 ; value: >100 µM
CCOC(=O)c1[nH]c2ccc(Cl)cc2c1SCCCC(F)(F)F ; read by: microscopy ; value: >10 µM
C#C[C@]1(CO)O[C@@H](n2ccc3c(N)ncnc32)C[C@@H]1O ; read by: ATP / luminescence ; value: >8.4 µM
CC1=C(C)CC(COCP(=O)(OCCSC(=O)C(C)(C)C)OCCSC(=O)C(C)(C)C)(n2cnc3c(N)ncnc32)C1 ; read by: XTT ; value: 47 µM
O=C1CC(c2ccc([N+](=O)[O-])cc2)n2nc(-c3ccncc3)nc2N1 ; read by: visual reading ; value: >100 µg/mL
NC(=O)c1[nH]c2ccc(Cl)cc2c1S(=O)(=O)C1CCCC1 ; read by: microscopy ; value: >10 µM
CC1(C)c2nc(C(=O)NCc3ccc(F)cc3)c(O)c(=O)n2CCN1Cc1cn[nH]c1 ; read by: microscopy ; value: >1 µM
N#Cc1cc(Cl)cc(Oc2cc(Cl)cc(OCC(=O)NC3CCS(=O)(=O)C3)c2)c1 ; read by: microscopy ; value: >20 µM
Nc1ccc2cc(S(=O)(=O)[O-])cc(O)c2c1N=Nc1ccc(NC(=O)Nc2ccc(N=Nc3c(N)ccc4cc(S(=O)(=O)[O-])cc(O)c34)c(S(=O)(=O)[O-])c2)cc1S(=O)(=O)[O-] ; read by: propidium iodide ; value: 8 µM
N#Cc1cc(Cl)cc(Oc2cc(Cl)cc(OCc3nc4cccc(Cl)c4s3)c2)c1 ; read by: microscopy ; value: >20 µM
CCOC(=O)c1[nH]c2ccc(Cl)cc2c1S(=O)(=O)C1CCC1 ; read by: microscopy ; value: >10 µM
O=C1CC(c2ccccc2)n2nc(-c3ccncc3)nc2N1 ; read by: visual reading ; value: >100 µg/mL
CN(C)C(=O)C(=O)N(C)C1CN(CC2CC2)CCn2c1nc(C(=O)NCc1ccc(F)cc1)c(O)c2=O ; read by: microscopy ; value: >1 µM
CC(C)CN(C[C@@H](O)[C@H](Cc1ccccc1)NC(=O)OCc1cncs1)S(=O)(=O)c1ccc2nc[nH]c2c1 ; value: >100 µM
C#C[C@]1(CO)O[C@@H](n2cc(F)c3c(N)ncnc32)C[C@@H]1O ; read by: ATP / luminescence ; value: >8.4 µM
N#Cc1cc(Cl)cc(Oc2cc(OCc3cn(-c4ccccc4)nn3)ccc2Cl)c1 ; read by: microscopy ; value: >20 µM
CCCCCc1nc2n(n1)C(c1ccc(OC)cc1)CC(=O)N2 ; read by: visual reading ; value: >100 µg/mL
C[C@H]1CC[C@]2(CNC(=O)C2)[C@H]2CN1C(=O)c1c(O)c(=O)c(C(=O)NCc3c(F)cc(F)cc3F)cn12 ; read by: luminescence ; value: 50 µM
COC(=O)Nc1nc2ccc(S(=O)(=O)N(CC(C)C)C[C@@H](O)[C@H](Cc3ccccc3)NC(=O)OC3COC4OCCC34)cc2[nH]1 ; value: 79.4 µM
Cc1cn([C@H]2C[C@H](N=[N+]=[N-])[C@@H](CO)O2)c(=O)[nH]c1=O ; read by: ATP / luminescence ; value: >8.4 µM
COCCN(C)c1ccc2c(COc3ccc(Cl)c(Oc4cc(Cl)cc(C#N)c4)c3)[nH]nc2n1 ; read by: microscopy ; value: >20 µM
C[C@H]1CCC2(N=c3ccccc3=N2)[C@H]2CN1C(=O)c1c(O)c(=O)c(C(=O)NCc3c(F)cc(F)cc3F)cn12 ; read by: luminescence ; value: 50 µM
NC[C@@H]1O[C@H](O[C@H]2[C@@H](O)[C@H](O[C@@H]3[C@@H](O)[C@H](N)C[C@H](N)[C@H]3O[C@H]3O[C@H](CN)[C@@H](O)[C@H](O)[C@H]3N)O[C@@H]2CO)[C@H](N)[C@@H](O)[C@@H]1O ; read by: propidium iodide ; value: >2000 µM
COc1ccc(-c2cc(-c3ccccc3)c(C#N)c(=O)n2[C@@H]2O[C@H](COC(C)=O)[C@@H](OC(C)=O)[C@H](OC(C)=O)[C@H]2OC(C)=O)cc1 ; read by: XTT ; value: >15.8 µM
CN1CCn2c(nc(C(=O)NCc3ccc(F)c(Cl)c3)c(O)c2=O)C(N(C)C(=O)C(=O)N(C)C)C1 ; read by: microscopy ; value: >1 µM
C[C@H]1CC[C@]2(CC(=O)N([C@@H](C)c3ccccc3)O2)[C@H]2CN1C(=O)c1c(O)c(=O)c(C(=O)NCc3c(F)cc(F)cc3F)cn12 ; read by: luminescence ; value: 50 µM
O=C(O)c1ccc2c(c1)C(=O)N(c1ccc(-c3cc(-c4ccc(N5C(=O)c6ccc(C(=O)O)cc6C5=O)cc4)nc(-c4ccccc4)n3)cc1)C2=O ; read by: propidium iodide ; value: >20 µM
N#Cc1cc(Cl)cc(Oc2cc(F)cc(OCc3[nH]nc4ncccc34)c2)c1 ; read by: microscopy ; value: >20 µM
COC(=O)N(C)C1CN(C)CCn2c1nc(C(=O)NCc1ccc(F)cc1)c(O)c2=O ; read by: microscopy ; value: >1 µM
C[C@H]1CC[C@@]2(ON=C(CF)[C@@H]2O)[C@H]2CN1C(=O)c1c(O)c(=O)c(C(=O)NCc3c(F)cc(F)cc3F)cn12 ; read by: luminescence ; value: 50 µM
COc1ccc(-c2cc(-c3ccccc3)c(C#N)c(=O)n2[C@@H]2O[C@H](CO)[C@H](O)[C@H](O)[C@H]2O)cc1 ; read by: XTT ; value: >21.5 µM
C[C@H]1CC[C@]2(CC(n3nccn3)=NO2)[C@H]2CN1C(=O)c1c(O)c(=O)c(C(=O)NCc3c(F)cc(F)cc3F)cn12 ; read by: luminescence ; value: 3.185 µM
O=C(/C=C/c1ccc(/C=C/C(=O)Nc2ccc(C3=NCCN3)cc2)cc1)Nc1ccc(C2=NCCN2)cc1 ; read by: propidium iodide ; value: >10 µM